Anti-infective test results gathered from many reports (values: NIAID ChemDB through PubChem).

All rows: growth or infection tests; organism: Candida albicans; measure: MIC50

MIC50, MIC90 and the like: level of inhibition, or share of isolates inhibited. Lines come from different laboratories, so protocols vary. Blank or dashed fields: not listed here.

structure	strain	read by	conditions	result
c1ccc2c(C(c3ccc(-n4cccc4)cc3)n3ccnc3)cccc2c1	23 strains	-	-	2 µg/mL
CCC(C)n1ncn(-c2ccc(N3CCN(c4ccc(OC[C@@H]5CO[C@@](Cn6cncn6)(c6ccc(F)cc6F)O5)cc4)CC3)cc2)c1=O	52 strains	-	-	0.06 µg/mL
NS(=O)(=O)c1ccc(Nc2ccnc(Nc3ccc(S(N)(=O)=O)cc3)n2)cc1	-	-	-	1.5 µg/mL
COc1ccc(C(Cc2ccc(N)cc2)n2ccnc2)cc1	34 strains	-	-	4 µg/mL
CC(C)CCC[C@@H](C)[C@H]1CCC2C3CC(=O)C4=CC(=O)CC[C@]4(C)C3CC[C@@]21C	CIP 1663-86	-	-	25 µg/mL
C[C@H]1[C@H](O)[C@@H](C)/C=C/C=C/C=C/C=C/C=C/C=C/C=C/[C@H](O[C@@H]2O[C@H](C)[C@@H](O)[C@H](N)[C@@H]2O)C[C@@H]2O[C@](O)(C[C@@H](O)C[C@@H](O)CC[C@H](O)[C@@H](O)C[C@@H](O)CC(=O)O[C@H]1C)C[C@H](O)[C@H]2C(=O)O	58 strains	-	-	0.5 µg/mL
O=C(O)O	ATCC 90028	broth dilution	-	80 µg/mL
C=CCN1C[C@H](OC[C@@]23C[C@@H]4[C@H](C)CC[C@H]4[C@@]4(C=O)C[C@@H]2CC(C(C)C)[C@@]34C(=O)O)O[C@H](C)C1	16 isolates/fluconazole resistant	-	-	0.03 µg/mL
CCCCCCCCOc1ccc(-c2ccc(C(=O)NC3CC(NCCN)CNC(=O)[C@@H]4[C@@H](O)[C@@H](C)CN4C(=O)[C@@H](CO)NC(=O)[C@H]([C@H](O)Cc4ccccc4)NC(=O)[C@@H]4C[C@@H](O)CN4C(=O)[C@H]([C@@H](C)O)NC3=O)cc2)cc1	33 isolates fluconazole-resistant	-	-	0.125 µg/mL
NC(N)=NCCCCCCCCCNCCCCCCCN=C(N)N	15T	-	-	80 µM
CC(C)CCC[C@@H](C)[C@H]1CCC2C3C(=O)C=C4C[C@@H](O)CC[C@]4(C)C3CC[C@@]21C	CIP 1663-86	-	-	1.5 µg/mL
CCC(C)CC(C)CCCCCCCCC(=O)N[C@H]1C[C@@H](O)[C@H](NCCN)NC(=O)[C@@H]2[C@@H](O)CCN2C(=O)[C@H]([C@H](O)CCN)NC(=O)[C@H]([C@H](O)[C@@H](O)c2ccc(O)cc2)NC(=O)[C@@H]2C[C@@H](O)CN2C(=O)[C@H]([C@@H](C)O)NC1=O	10 strains (fluconazole- itraconazole-susceptible)	-	-	0.5 µg/mL
COc1ccc(C(Cc2ccccc2Cl)n2ccnc2)cc1	34 strains	-	-	256 µg/mL
C[C@H]1[C@H](O)[C@@H](C)/C=C/C=C/C=C/C=C/C=C/C=C/C=C/[C@H](O[C@@H]2O[C@H](C)[C@@H](O)[C@H](N)[C@@H]2O)C[C@@H]2O[C@](O)(C[C@@H](O)C[C@@H](O)CC[C@H](O)[C@@H](O)C[C@@H](O)CC(=O)O[C@H]1C)C[C@H](O)[C@H]2C(=O)O	16 isolates fluconazole-susceptible	-	-	0.125 µg/mL
COc1ccc(CN2C[C@H](OC[C@@]34C[C@@H]5[C@H](C)CC[C@H]5[C@@]5(C=O)C[C@@H]3CC(C(C)C)[C@@]45C(=O)O)O[C@H](C)C2)cc1	16 isolates	-	-	≤0.001 µg/mL
c1ccc(-c2ccc(C(c3cccc4ccccc34)n3ccnc3)cc2)cc1	23 strains	-	-	8 µg/mL
Clc1ccc(Nc2ccnc(Nc3ccc(Cl)cc3)n2)cc1	-	-	-	0.84 µg/mL
COc1ccc(C(C(Cc2ccc(Cl)cc2Cl)c2ccc(Cl)cc2)n2ccnc2)cc1	28 strains	-	-	4 µg/mL
Nc1[nH]c(=O)ncc1F	126 strains	-	-	0.25 µg/mL
COc1ccc(C(Cc2ccc(Cl)cc2Cl)C(c2ccc(OC)cc2)n2ccnc2)cc1	28 strains	-	-	16 µg/mL
CCCCCOc1ccc(-c2ccc(-c3ccc(C(=O)N[C@H]4C[C@@H](O)[C@@H](O)NC(=O)[C@@H]5[C@@H](O)[C@@H](C)CN5C(=O)[C@H]([C@H](C)O)NC(=O)[C@H]([C@H](O)[C@@H](O)c5ccc(O)cc5)NC(=O)[C@@H]5C[C@@H](O)CN5C(=O)[C@H]([C@H](C)O)NC4=O)cc3)cc2)cc1	15 strains	-	-	0.25 µg/mL
CC(C)(C)[Si](C)(C)OCC1C=C(c2ccc(Cl)c(Cl)c2)C(=O)O1	ATCC 90028	-	-	>32 µg/mL
COc1ccc(C(c2ccc3ccccc3c2)n2ccnc2)cc1	23 strains	-	-	16 µg/mL
C[C@H]1[C@H](O)[C@@H](C)/C=C/C=C/C=C/C=C/C=C/C=C/C=C/[C@H](O[C@@H]2O[C@H](C)[C@@H](O)[C@H](N)[C@@H]2O)C[C@@H]2O[C@](O)(C[C@@H](O)C[C@@H](O)CC[C@H](O)[C@@H](O)C[C@@H](O)CC(=O)O[C@H]1C)C[C@H](O)[C@H]2C(=O)O	50 isolates	-	-	0.1 µg/mL
C[C@@H](c1ncncc1F)[C@](O)(Cn1cncn1)c1ccc(F)cc1F	Isolate M27-T-micro	-	24 h	0.048 µg/mL
CC(=O)OCC1C=C(c2cccc(Cl)c2)C(=O)O1	9 isolates fluconazole-resistant	-	-	2 µg/mL
CC[C@@H](c1ccc(Cl)cc1)[C@@H](c1ccc(OC)cc1)n1cnnc1	28 strains	-	-	256 µg/mL
C[C@@H](c1ncncc1F)[C@](O)(Cn1cncn1)c1ccc(F)cc1F	660 isolates	-	-	0.015 µg/mL
C/C=C/CN=C(N)NCCCCCCCN1CCCCCCCCN=C(N)NC1=O	4T	-	-	1.25 µM
c1ccc(C(c2ccc3ccccc3c2)n2ccnc2)cc1	23 strains	-	-	4 µg/mL
O[C@](Cn1cncn1)(Cn1cnc(/C=C/c2ccc(OCC(F)(F)C(F)F)cc2)n1)c1ccc(F)cc1F	50 strains (fluconazole-susceptible)	-	-	≤0.0078 µg/mL
CCC(c1ccc(OC)cc1)C(c1ccc(OC)cc1)n1cnnc1	28 strains	-	-	128 µg/mL
N=C(N)N(CCCCCCCCCN=C(N)N)CCCCCCCN=C(N)N	15T	-	-	10 µM
COc1ccc(C(Cc2cccc(Cl)c2)n2ccnc2)cc1	34 strains	-	-	64 µg/mL
Clc1ccccc1Nc1ccnc(Nc2ccccc2Cl)n1	-	-	-	1.14 µg/mL
C[C@H]1[C@H](O)[C@@H](C)/C=C/C=C/C=C/C=C/C=C/C=C/C=C/[C@H](O[C@@H]2O[C@H](C)[C@@H](O)[C@H](N)[C@@H]2O)C[C@@H]2O[C@](O)(C[C@@H](O)C[C@@H](O)CC[C@H](O)[C@@H](O)C[C@@H](O)CC(=O)O[C@H]1C)C[C@H](O)[C@H]2C(=O)O	97 isolates	-	-	0.5 µg/mL
C[C@H]1[C@H](O)[C@@H](C)/C=C/C=C/C=C/C=C/C=C/C=C/C=C/[C@H](O[C@@H]2O[C@H](C)[C@@H](O)[C@H](N)[C@@H]2O)C[C@@H]2O[C@](O)(C[C@@H](O)C[C@@H](O)CC[C@H](O)[C@@H](O)C[C@@H](O)CC(=O)O[C@H]1C)C[C@H](O)[C@H]2C(=O)O	34 isolates	-	-	0.5 µg/mL
COc1ccc(C(C(Cc2ccc(Cl)cc2Cl)c2ccc(Cl)cc2)n2cncn2)cc1	28 strains	-	-	256 µg/mL
CCC(C)n1ncn(-c2ccc(N3CCN(c4ccc(OC[C@H]5CO[C@](Cn6cncn6)(c6ccc(Cl)cc6Cl)O5)cc4)CC3)cc2)c1=O	Fluconazole-susceptible	-	-	0.12 µg/mL
Clc1ccc(C(c2cccc3ccccc23)n2ccnc2)cc1	23 strains	-	-	2 µg/mL
CC(C)=CCN=C(N)NCCCCCCCN1CCCCCCCCN=C(N)NC1=O	15T	-	-	20 µM
COc1ccc(Nc2ccnc(Nc3ccc(OC)cc3)n2)cc1	-	-	-	8 µg/mL
CCC(c1ccc(OC)cc1)C(c1ccc(OC)cc1)n1cncn1	28 strains	-	-	>256 µg/mL
COc1ccc2cc3[n+](cc2c1OC)CCc1cc2c(cc1-3)OCO2	-	-	-	293 µg/mL
C=C(C)CN=C(N)NCCCCCCCN1CCCCCCCCN=C(N)NC1=O	ATCC 60193	-	-	20 µM
Nc1ncccc1-c1cc(Cc2ccc(COc3ccccn3)cc2)no1	IFM49971	broth dilution	-	0.008 µg/mL
C[C@H]1[C@H](O)[C@@H](C)/C=C/C=C/C=C/C=C/C=C/C=C/C=C/[C@H](O[C@@H]2O[C@H](C)[C@@H](O)[C@H](N)[C@@H]2O)C[C@@H]2O[C@](O)(C[C@@H](O)C[C@@H](O)CC[C@H](O)[C@@H](O)C[C@@H](O)CC(=O)O[C@H]1C)C[C@H](O)[C@H]2C(=O)O	126 strains	-	-	0.06 µg/mL
COc1ccc(C(Cc2ccccc2N)n2ccnc2)cc1	34 strains	-	-	32 µg/mL
CCC(C)CC(C)CCCCCCCCC(=O)N[C@H]1C[C@@H](O)[C@H](NCCN)NC(=O)[C@@H]2[C@@H](O)CCN2C(=O)[C@H]([C@H](O)CCN)NC(=O)[C@H]([C@H](O)[C@@H](O)c2ccc(O)cc2)NC(=O)[C@@H]2C[C@@H](O)CN2C(=O)[C@H]([C@@H](C)O)NC1=O	50 isolates	-	-	0.2 µg/mL
Clc1cccc(Nc2ccnc(Nc3cccc(Cl)c3)n2)c1	-	-	-	0.82 µg/mL
O=C1OC(CO)C=C1c1ccc(Cl)c(Cl)c1	ATCC 90028	-	-	>32 µg/mL
C=C(C)CN1C[C@H](OC[C@@]23C[C@@H]4[C@H](C)CC[C@H]4[C@@]4(C=O)C[C@@H]2CC(C(C)C)[C@@]34C(=O)O)O[C@H](C)C1	16 isolates	-	-	0.004 µg/mL
COc1ccc(C(Cc2ccc(Cl)cc2)n2cncn2)cc1	28 strains	-	-	16 µg/mL
COc1ccc([C@@H](Cc2ccc(Cl)cc2Cl)n2ccnc2)cc1	34 strains	-	-	1 µg/mL
COc1ccc(CC(c2ccc(OC)cc2)n2cncn2)cc1	28 strains	-	-	128 µg/mL
CCCCCOc1ccc(-c2cc(-c3ccc(C(=O)N[C@H]4C[C@@H](O)[C@@H](O)NC(=O)[C@@H]5[C@@H](O)[C@@H](C)CN5C(=O)[C@H]([C@H](O)CC(N)=O)NC(=O)[C@H]([C@H](O)[C@@H](O)c5ccc(O)c(OS(=O)(=O)O)c5)NC(=O)[C@@H]5C[C@@H](O)CN5C(=O)[C@H]([C@@H](C)O)NC4=O)cc3)no2)cc1	Fluconazole-resistant 4 isolates pooled	-	-	0.0156 µg/mL
CC(C)CCC[C@@H](C)[C@H]1CCC2C3C(CC[C@@]21C)[C@@]1(C)CCC(=O)CC1C[C@H]3O	CIP 1663-86	-	-	>50 µg/mL
c1csc(C(c2cccc3ccccc23)n2ccnc2)c1	23 strains	-	-	8 µg/mL
CCC(C)n1ncn(-c2ccc(N3CCN(c4ccc(OC[C@H]5CO[C@](Cn6cncn6)(c6ccc(Cl)cc6Cl)O5)cc4)CC3)cc2)c1=O	2453 strains	-	-	0.03 µg/mL
Clc1cc(Cl)c2c(c1)CCc1ccccc1C2n1ccnc1	35 isolates	-	-	0.03 µg/mL
Fc1ccc(C(c2ccc3ccccc3c2)n2ccnc2)cc1	23 strains	-	-	4 µg/mL
C=CCSS(=O)CC=C	Clinical Isolate 3109	broth dilution	-	1.56 µg/mL
CCn1cc(-c2ccc(Cl)c(Cl)c2)c(=O)o1	ATCC 90028	-	-	>32 µg/mL
CC(C)CCC[C@@H](C)[C@H]1CCC2C3C[C@@H](O)C4C[C@@H](O)CC[C@]4(C)C3CC[C@@]21C	CIP 1663-86	-	-	>25 µg/mL

The last 9 rows once more:

structure,strain,read by,conditions,result
CCCCCOc1ccc(-c2cc(-c3ccc(C(=O)N[C@H]4C[C@@H](O)[C@@H](O)NC(=O)[C@@H]5[C@@H](O)[C@@H](C)CN5C(=O)[C@H]([C@H](O)CC(N)=O)NC(=O)[C@H]([C@H](O)[C@@H](O)c5ccc(O)c(OS(=O)(=O)O)c5)NC(=O)[C@@H]5C[C@@H](O)CN5C(=O)[C@H]([C@@H](C)O)NC4=O)cc3)no2)cc1,Fluconazole-resistant 4 isolates pooled,-,-,0.0156 µg/mL
CC(C)CCC[C@@H](C)[C@H]1CCC2C3C(CC[C@@]21C)[C@@]1(C)CCC(=O)CC1C[C@H]3O,CIP 1663-86,-,-,>50 µg/mL
c1csc(C(c2cccc3ccccc23)n2ccnc2)c1,23 strains,-,-,8 µg/mL
CCC(C)n1ncn(-c2ccc(N3CCN(c4ccc(OC[C@H]5CO[C@](Cn6cncn6)(c6ccc(Cl)cc6Cl)O5)cc4)CC3)cc2)c1=O,2453 strains,-,-,0.03 µg/mL
Clc1cc(Cl)c2c(c1)CCc1ccccc1C2n1ccnc1,35 isolates,-,-,0.03 µg/mL
Fc1ccc(C(c2ccc3ccccc3c2)n2ccnc2)cc1,23 strains,-,-,4 µg/mL
C=CCSS(=O)CC=C,Clinical Isolate 3109,broth dilution,-,1.56 µg/mL
CCn1cc(-c2ccc(Cl)c(Cl)c2)c(=O)o1,ATCC 90028,-,-,>32 µg/mL
CC(C)CCC[C@@H](C)[C@H]1CCC2C3C[C@@H](O)C4C[C@@H](O)CC[C@]4(C)C3CC[C@@]21C,CIP 1663-86,-,-,>25 µg/mL